Laboratory results from article PMC12564302, “Discovery of N-Hydroxypyridinedione-Based Inhibitors of HBV RNase H: Design, Synthesis, and Extended SAR Studies” (International Journal of Molecular Sciences, 2025).
Like-named read-outs stand apart in the source and are kept apart here.

How the values were obtained:
[1] = system: HBV replication in HepDES19 cells; details: cited from earlier work
[2] = system: HBV replication in HepDES19 cells; test: qPCR HBV replication inhibition assay; format: cell-based, HBV genotype D; details: CC50/EC50
Protocol: HepDES19 cells are a HepG2 cell-line derivative that has been stably transfected with an HBV genotype D genome containing a tetracycline repressible promoter. HepDES19 cells were maintained on collagen-coated plates in Dulbecco’s modified Eagle’s medium (DMEM/F12) (Cytiva Life Sciences, Marlborough, MA, USA) supplemented with 10% fetal bovine serum (FBS), streptomycin (100 µg/mL), and penicillin (100 IU/mL), and incubated at 37 °C with 5% CO2 and saturating humidity. Cells were cultured with 1 µg/mL tetracycline to inhibit the expression of the stably integrated HBV genome, and HBV replication was activated upon removal of tetracycline from the culture medium.
HBV replication inhibition in HepDES19 cells was assessed using a strand-preferential quantitative PCR assay as previously described. HepDES19 cells were seeded in 96 well plates at 4 × 10^4 cells/well for 48 h followed by the addition of serial diluted compound with a final concentration of 1% DMSO for 72 h, after which cells were lysed, and qPCR was performed as described in Li et al.. Effective concentration 50% (EC50) values were calculated from data for the (+) polarity DNA strand data using GraphPad Prism version 10’s four-parameter log (inhibitor) versus response algorithm, with the bottom value set to zero. Three or more replicate assays were performed on different days.

[3] = CC50/EC50, previously published compounds
[4] = CC50/EC50, Figure 1, earlier HBV RNase H inhibitors

Row | Structure (SMILES) | SI [2] | also measured
1 | C/C(=N\OCc1cccc(F)c1)c1c(C)cc(=O)n(O)c1O [Compound 53] |  | SI [1, 3]: 1231
2 | CC(=NCCOc1ccc(Cl)cc1)c1c(C)cc(=O)n(O)c1O [Compound 43, 5-(1-((2-(4-chlorophenoxy)ethyl)imino)ethyl)-1,6-dihydroxy-4-methylpyridin-2(1H)-one] | 1.8 | 
3 | CC(=NCc1cccc(Cl)c1)c1c(C)cc(=O)n(O)c1O [Compound 37, 5-(1-((3-chlorobenzyl)imino)ethyl)-1,6-dihydroxy-4-methylpyridin-2(1H)-one] | 7.2 | 
4 | CC(=NCc1ccc(F)c(F)c1)c1c(C)cc(=O)n(O)c1O [Compound 41, 5-(1-((3,4-difluorobenzyl)imino)ethyl)-1,6-dihydroxy-4-methylpyridin-2(1H)-one] | 2.2 | 
5 | CC(=Nc1ccc(F)cc1F)c1c(C)cc(=O)n(O)c1O [Compound 26, 5-(1-((2,4-difluorophenyl)imino)ethyl)-1,6-dihydroxy-4-methylpyridin-2(1H)-one] | 19.1 | 
6 | CC(=NOCc1ccc(Cl)cc1Cl)c1c(C)cc(=O)n(O)c1O [Compound 31, 5-(1-(((2,4-dichlorobenzyl)oxy)imino)ethyl)-1,6-dihydroxy-4-methylpyridin-2(1H)-one] | 65.1 | 
7 | C/C(=N\OCc1cccc(Cl)c1)c1c(C)cc(=O)n(O)c1O [Compound 50] |  | SI [1, 3]: 42.1
8 | C/C(=N\OCc1ccccc1Br)c1c(C)cc(=O)n(O)c1O [Compound 46] |  | SI [1, 3]: 40.0
9 | CC(=NCc1ccccc1Cl)c1c(C)cc(=O)n(O)c1O [Compound 36, 5-(1-((2-chlorobenzyl)imino)ethyl)-1,6-dihydroxy-4-methylpyridin-2(1H)-one] | 19.0 | 
10 | CC(=NCc1cccc(F)c1)c1c(C)cc(=O)n(O)c1O [Compound 39, 5-(1-((3-fluorobenzyl)imino)ethyl)-1,6-dihydroxy-4-methylpyridin-2(1H)-one] | 0.7 | 
11 | C/C(=N\OCc1ccc(Br)cc1)c1c(C)cc(=O)n(O)c1O [Compound 48] |  | SI [1, 3]: 67.9
12 | CC(=NCc1ccc(Br)cc1)c1c(C)cc(=O)n(O)c1O [Compound 35, 5-(1-((4-bromobenzyl)imino)ethyl)-1,6-dihydroxy-4-methylpyridin-2(1H)-one] | 3.0 | 
13 | COc1ccc(CON=C(C)c2c(C)cc(=O)n(O)c2O)cc1 [A24] |  | SI [1, 4]: 352
14 | CC(=NCc1ccc(Cl)cc1)c1c(C)cc(=O)n(O)c1O [Compound 38, 5-(1-((4-chlorobenzyl)imino)ethyl)-1,6-dihydroxy-4-methylpyridin-2(1H)-one] | 1.2 | 
15 | CC(=NCc1cc(F)cc(F)c1)c1c(C)cc(=O)n(O)c1O [Compound 42, 5-(1-((3,5-difluorobenzyl)imino)ethyl)-1,6-dihydroxy-4-methylpyridin-2(1H)-one] | 1.1 | 
16 | CC(=NCc1ccc(F)cc1)c1c(C)cc(=O)n(O)c1O [Compound 40, 5-(1-((4-fluorobenzyl)imino)ethyl)-1,6-dihydroxy-4-methylpyridin-2(1H)-one] | 0.9 | 
17 | CC(=Nc1ccccc1F)c1c(C)cc(=O)n(O)c1O [Compound 21, 5-(1-((2-fluorophenyl)imino)ethyl)-1,6-dihydroxy-4-methylpyridin-2(1H)-one] | 39.2 | 

Row | Structure (SMILES) | SI [2] | also measured
18 | CC(=NOCc1ccc(Cl)c(Cl)c1)c1c(C)cc(=O)n(O)c1O [Compound 30, 5-(1-(((3,4-dichlorobenzyl)oxy)imino)ethyl)-1,6-dihydroxy-4-methylpyridin-2(1H)-one] | 28.2 | 
19 | CC(=NCc1ccccc1Br)c1c(C)cc(=O)n(O)c1O [Compound 33, 5-(1-((2-bromobenzyl)imino)ethyl)-1,6-dihydroxy-4-methylpyridin-2(1H)-one] | 6.1 | 
20 | C/C(=N\c1ccccc1N)c1c(C)cc(=O)n(O)c1O [Compound 54] |  | SI [1, 4]: 29; SI ([1]; CC50/EC50, previously published compound, Table 1): 22; SI ([1]; hit compound as quoted in the text, ratio CC50 / EC50): 28.7
21 | C/C(=N\OCc1ccc(Cl)cc1)c1c(C)cc(=O)n(O)c1O [Compound 51] |  | SI [1, 3]: 130
22 | CC(=NOCc1ccccc1Cl)C1C(=O)NC(=O)NC1=O [Compound 45, 5-(1-(((2-chlorobenzyl)oxy)imino)ethyl)pyrimidine-2,4,6(1H,3H,5H)-trione] | 1.0 | 
23 | CC(=Nc1ccc(F)c(Cl)c1)c1c(C)cc(=O)n(O)c1O [Compound 29, 5-(1-((3-chloro-4-fluorophenyl)imino)ethyl)-1,6-dihydroxy-4-methylpyridin-2(1H)-one] | 21.8 | 
24 | CC(=Nc1ccc(Cl)c(Cl)c1)c1c(C)cc(=O)n(O)c1O [Compound 24, 5-(1-((3,4-dichlorophenyl)imino)ethyl)-1,6-dihydroxy-4-methylpyridin-2(1H)-one] | 31.8 | 
25 | CC(=NCc1cccc(Br)c1)c1c(C)cc(=O)n(O)c1O [Compound 34, 5-(1-((3-bromobenzyl)imino)ethyl)-1,6-dihydroxy-4-methylpyridin-2(1H)-one] | 1.7 | 
26 | CC(=Nc1ccccc1Br)c1c(C)cc(=O)n(O)c1O [Compound 25, 5-(1-((2-bromophenyl)imino)ethyl)-1,6-dihydroxy-4-methylpyridin-2(1H)-one] | 10.1 | 
27 | CC(=Nc1c(F)cccc1F)c1c(C)cc(=O)n(O)c1O [Compound 28, 5-(1-((2,6-difluorophenyl)imino)ethyl)-1,6-dihydroxy-4-methylpyridin-2(1H)-one] | 19.3 | 
28 | CC(=NOCc1ccccc1I)c1c(C)cc(=O)n(O)c1O [Compound 32, 1,6-dihydroxy-5-(1-(((2-iodobenzyl)oxy)imino)ethyl)-4-methylpyridin-2(1H)-one] | 30.5 | 
29 | C/C(=N\OCc1cccc(Br)c1)c1c(C)cc(=O)n(O)c1O [Compound 47] |  | SI [1, 3]: 151
30 | C/C(=N\OCc1ccccc1F)c1c(C)cc(=O)n(O)c1O [Compound 52] |  | SI ([1]; CC50/EC50, previously published compound): 281
31 | CC(=Nc1ccccc1Cl)c1c(C)cc(=O)n(O)c1O [Compound 23, 5-(1-((2-chlorophenyl)imino)ethyl)-1,6-dihydroxy-4-methylpyridin-2(1H)-one] | 31.7 | 
32 | CC(=Nc1cc(F)ccc1F)c1c(C)cc(=O)n(O)c1O [Compound 27, 5-(1-((2,5-difluorophenyl)imino)ethyl)-1,6-dihydroxy-4-methylpyridin-2(1H)-one] | 29.7 | 
33 | CC(=Nc1ccc(F)c(F)c1)c1c(C)cc(=O)n(O)c1O [Compound 22, 5-(1-((3,4-difluorophenyl)imino)ethyl)-1,6-dihydroxy-4-methylpyridin-2(1H)-one] | 112.4 | 
